Pooled drug test results. Numbers come from NIAID ChemDB, via PubChem.

Common to all: tests in culture; organism: HIV-1; cell line: MT-4; endpoint: fold resistance

Fold resistance: result on the changed form divided by that on wild type. An empty or dashed field is not shown. Neighbouring rows are from separate reports.

structure | strain | mutations | method | setting | result
CC(C)(C)NC(=O)[C@@H]1C[C@@H]2CCCC[C@@H]2CN1C[C@@H](O)[C@H](Cc1ccccc1)NC(=O)[C@H](CC(N)=O)NC(=O)c1ccc2ccccc2n1 | NL4-3 | PR-L10R M46I L63P 184V | p24 |  | 4
CCCc1nnc(C[C@H](C[C@H](O)CN2CCN(C(C)(C)c3ncc(-c4cncc(OC)c4)o3)C[C@H]2C(=O)NCC(F)(F)F)C(=O)N[C@H]2c3ccccc3OC[C@H]2O)o1 | Q-60 Clinical isolate | PR-L10I N37S R41K M46I I54V I62V L63P A71V V77I V82A L90M I93L | p24 |  | 1
CN[C@H]1CO[C@@H]2OCC[C@H](OC(=O)N[C@@H](Cc3ccccc3)[C@H](O)CN(CC(C)C)S(=O)(=O)c3ccc4nc(NC5CC5)sc4c3)[C@@H]21 | NL4-3 | L10I N37D G48V I54V L63P G73C I84V L90M | p24 / luminescence |  | 6.4
CC(C)CN(C[C@@H](O)[C@H](Cc1ccccc1)NC(=O)O[C@H]1CCOC1)S(=O)(=O)c1ccc(N)cc1 | NL4-3 | PR-D30N A71V | p24 |  | 0.25
COC(=O)N[C@H](C(=O)N[C@@H](Cc1ccccc1)[C@@H](O)CN(Cc1ccc(-c2ccccn2)cc1)NC(=O)[C@@H](NC(=O)OC)C(C)(C)C)C(C)(C)C | NL4-3 | L10F V32I L33F M46L I54M A71V | p24 / luminescence |  | 0.8
Nc1nc(=O)n([C@H]2CO[C@@H](CO)S2)cc1F | HXB2D (RT-M184V) | RT-M184V | RT activity |  | 13.5
CCCc1nnc(C[C@H](C[C@H](O)CN2CCN(C(C)(C)c3ncc(-c4ccc(F)cc4)o3)C[C@H]2C(=O)NCC(F)(F)F)C(=O)N[C@H]2c3ccccc3OC[C@H]2O)o1 | Q-60 Clinical isolate | PR-L10I N37S R41K M46I I54V I62V L63P A71V V77I V82A L90M I93L | p24 |  | ≤0.5
Cc1cn([C@H]2C[C@H](N=[N+]=[N-])[C@@H](CO)O2)c(=O)[nH]c1=O | HxB2D(RT-D67G) | RT-D67G | RT activity |  | 1.36
Cc1cn([C@H]2C=C[C@@H](CO)O2)c(=O)[nH]c1=O | EFV-resistant (RT K103R V179D P225H) | RT-K103R V179D P225H | cytopathic effect / MTT |  | 0.24
Nc1ccn([C@H]2CO[C@@H](CO)S2)c(=O)n1 | HxB2D(RT-D67G) | RT-D67G | RT activity |  | 2.14
CCc1cc(NCc2nc3c(Cl)ccc(Cl)c3o2)c(=O)[nH]c1C | NL4-3 | RT-K103N | p24 |  | 8
CC(C)CN(C[C@@H](O)[C@H](Cc1ccccc1)NC(=O)[C@H](CC(N)=O)NC(=O)c1ccc2ccccc2n1)C(=O)NC(C)(C)C | NL4-3 | PR-I84V | p24 |  | 2
CC(C)CN(C[C@@H](O)[C@H](Cc1ccccc1)NC(=O)O[C@H]1CCOC1)S(=O)(=O)c1ccc(N)cc1 | NL4-3 | L10F M46I I54V V82A | p24 / luminescence |  | >27
Nc1ccn([C@H]2CC[C@@H](CO)O2)c(=O)n1 | Clinical isolate | AZT-resistant (RT I50V D67N K70R I135V T215Y) |  | clinical isolate | 1.625
Fc1cccc(F)c1Cn1c(-c2c(F)cccc2F)nc2c(Br)cccc21 |  | RT-V108I | cytopathic effect / MTT |  | 6.4
Cc1nnc(C[C@H](C[C@H](O)CN2CCN(C(C)(C)c3ncc(-c4ccc(F)cc4)o3)C[C@H]2C(=O)NCC(F)(F)F)C(=O)N[C@H]2c3ccccc3OC[C@H]2O)o1 | K-60 Clinical isolate | PR-L10I M46I I54V Q58E L63P I64V V77I V82F I84V L90M I93L | p24 |  | 1
CC(=O)Nc1cccc2c1nc(-c1c(F)cccc1F)n2Cc1c(F)cccc1F |  | RT-K103N | cytopathic effect / MTT |  | >12.5
CC(C)=CCN1c2cc(Cl)cc3[nH]c(=S)n(c23)C[C@@H]1C |  | RT-M41L T215Y |  |  | 1
CC(C)(c1ncc(-c2ccc(F)cc2)o1)N1CCN(C[C@@H](O)C[C@@H](Cc2nnco2)C(=O)N[C@H]2c3ccccc3OC[C@H]2O)[C@H](C(=O)NCC(F)(F)F)C1 | Q-60 Clinical isolate | PR-L10I N37S R41K M46I I54V I62V L63P A71V V77I V82A L90M I93L | p24 |  | 0.248
Nc1ccn([C@H]2CC[C@@H](CO)O2)c(=O)n1 | HxB2D(RT-D67G) | RT-D67G | RT activity |  | 1.23
CCCc1nnc(C[C@H](C[C@H](O)CN2CCN(Cc3ccc(-c4ccc(Cl)cc4)o3)C[C@H]2C(=O)NCC(F)(F)F)C(=O)N[C@H]2c3ccccc3OC[C@H]2O)o1 | V-18 Clinical isolate | PR-L10I M36I N37D M46I R57K L63P A71V G73S I84V L90M I93L | p24 |  | ≥15.6
CCN[C@H]1CO[C@@H]2OCC[C@H](OC(=O)N[C@@H](Cc3ccccc3)[C@H](O)CN(CC(C)C)S(=O)(=O)c3ccc4nc(NC5CC5)sc4c3)[C@@H]21 | NL4-3 | L10I I15V K20R L24I V32I M36I M46I L63P K70Q V82A I84V L89M | p24 / luminescence |  | 1.5
CC(C)(c1ncc(-c2ccc(F)cc2)o1)N1CCN(C[C@@H](O)C[C@@H](Cc2nnc(-c3ccccc3)o2)C(=O)N[C@H]2c3ccccc3OC[C@H]2O)[C@H](C(=O)NCC(F)(F)F)C1 | Q-60 Clinical isolate | PR-L10I N37S R41K M46I I54V I62V L63P A71V V77I V82A L90M I93L | p24 |  | ≥2
O=c1[nH]cnc2c1ncn2[C@H]1CC[C@@H](CO)O1 | EFV-resistant (RT K103R V179D P225H) | RT-K103R V179D P225H | cytopathic effect / MTT |  | 0.12
CNc1cccc2c1nc(-c1c(F)cccc1F)n2Cc1c(F)cccc1F |  | RT-K103N | cytopathic effect / MTT |  | 20.4
CC(C)CN(C[C@@H](O)[C@H](Cc1ccccc1)NC(=O)O[C@H]1CCO[C@H]2OCC[C@H]21)S(=O)(=O)c1ccc2nc(NC3CC3)sc2c1 | NL4-3 | L10F V32I L33F M46L I54M A71V | p24 / luminescence |  | 11
COC(=O)c1cccc2c1nc(-c1c(F)cccc1F)n2Cc1c(F)cccc1F |  | RT-Y181C | cytopathic effect / MTT |  | 16.8
Cc1cn([C@H]2C[C@H](N=[N+]=[N-])[C@@H](COC(=O)NCCSC(=O)OC[C@@H]3CC[C@H](n4cnc5c(=O)[nH]cnc54)O3)O2)c(=O)[nH]c1=O | EFV-resistant (RT K103R V179D P225H) | RT-K103R V179D P225H | cytopathic effect / MTT |  | 0.2

4 of the rows above, restated:

structure,strain,mutations,method,setting,result
CCc1cc(NCc2nc3c(Cl)ccc(Cl)c3o2)c(=O)[nH]c1C,NL4-3,RT-K103N,p24,,8
CC(C)CN(C[C@@H](O)[C@H](Cc1ccccc1)NC(=O)[C@H](CC(N)=O)NC(=O)c1ccc2ccccc2n1)C(=O)NC(C)(C)C,NL4-3,PR-I84V,p24,,2
CC(C)CN(C[C@@H](O)[C@H](Cc1ccccc1)NC(=O)O[C@H]1CCOC1)S(=O)(=O)c1ccc(N)cc1,NL4-3,L10F M46I I54V V82A,p24 / luminescence,,>27
CC(C)=CCN1c2cc(Cl)cc3[nH]c(=S)n(c23)C[C@@H]1C,,RT-M41L T215Y,,,1